Reference: publication PMC9734383 (Nature Communications, 2022)

B1: PN-SIA28 Fab (Fab, V domains shown)
VH: QVQLVESGGGVVQPGRSLRLSCAASGFPFSSYGMHWVRQAPGKGLEWVAGVSYDGSYKYYADSVKGRFTISRDSSKSTLYLQMNSLRPEDTAVYYCARPSAIFGIYIILNGLDVWGQGTTVTVSS
VL: EIVLTQSPSSVSASVGDRVTITCRATQGISSWLAWYQQKPGKPPKLLIFGASSLQSGVPSRFSGSGSGTDFTLTISSLQPEDFATYFCQQAHSFPLTFGGGTKVEIK
B2: PN-SIA28 Fab (Fab, V domains shown)
VH: B1 VH
VL: B1 VL
notes: also called PN-SIA28 Fab fragment

Experiments:
Settings in all cases: both partners purified
H17 HA = H17 HA ([…] stand-in A/little yellow-shouldered …, UniProt H6QM93, strain); assay: SEC
[1] = biological target: H18-HA (A/flat-faced bat/Peru/033/2010) (Influenza A virus A/flat-faced …, UniProt U5N1D3, strain); assay: SEC
[2] = biological target: H17 HA (recombinant HA of the panel) ([…] stand-in A/little yellow-shouldered …, UniProt H6QM93, strain, biotinylated (in the BLI assay))
[3] = biological target: H18 HA (recombinant HA of the panel) (Influenza A virus A/flat-faced …, UniProt U5N1D3, strain, biotinylated (in the BLI assay))

Binder | binding result (H17 HA) | binding result [1] | binding result [2] | binding result [3]
B1 | binds | binds | – | –
B2 | – | – | binds | binds
